{"source": "patent US6812025B2", "about": "“Two hybrid assay that detects HIV-1 reverse transcriptase dimerization” (priority 2000, dated 2004)", "key": {"[1]": {"biological_target": "T1, lexA87-66W401A and Gal4AD-HA-51W401A (Human immunodeficiency virus type 1 group M subtype B, UniProt P12497, W988A)", "T1 construct": "Yeast expressing both p66 bait and p51 prey fusions containing the W401A mutation; expressed in transfected cells; host or cells: Saccharomyces cerevisiae CTY10-5d", "type": "cell-based, HIV-1", "description": "[…]; Preparation of protein extracts and immunoprecipitation were as previously described (30) except for the use of anti-HA.11 monoclonal antibodies (clone 16B12; Covance, Princeton, N.J.) and Protein G-PLUS agarose beads (Santa Cruz Biotechnology; Santa Cruz, Calif.). Samples were resolved by SDS-PAGE. The leXA87-66 fusion protein was probed using monoclonal antibodies 7E5 which specifically detects p66 (31).\n[…]. […] […]."}, "[2]": {"biological_target": "p66 bait and p51 prey fusions with the W401A change (Human immunodeficiency virus type 1 group M subtype B, UniProt P12497, W988A)", "details": "compared to no drug", "method": "CTY10-5d transformed constructs expressing p66 bait and p51 prey fusions were grown overnight to stationary phase in synthetic complete medium without histidine and leucine and containing 2% glucose (SC-His-Leu). […] Yeast were grown with aeration at 30° C. to OD600=0.5. The equivalent of 1 OD600 unit was pelleted for each treatment and subjected to a quantitative b-gal liquid assay.\nHemagglutinin (HA) antibodies were used to immunoprecipitate the p51 prey and the presence of any bound p66 bait was then detected using anti-p66 specific antibodies. For coimmunoprecipitation of the p66 bait fusions, samples were divided into two with one part processed without added NNRTI while the other was maintained in drug at the same concentration used during growth of yeast."}}}
{"smiles": "O=C1Nc2ccc(Cl)cc2[C@@](C#CC2CC2)(C(F)(F)F)O1", "note": "[efavirenz]", "values": [{"measurement": "heterodimer in lysates of yeast grown without drug, drug added during coimmunoprecipitation, W401A", "setting": "[1]; 1.6 μM efavirenz added during the procedure", "value": "significantly more heterodimer present"}, {"measurement": "amount of p66 bait coimmunoprecipitated with p51 prey (heterodimer formation), W401A", "setting": "[1]; yeast grown in efavirenz (1.6 μM) or UC781 (16 μM), compared to no drug", "value": "clear increase"}, {"measurement": "b-gal activity, W401A change in one or both subunits", "setting": "[2]", "value": "dramatic increase in b-gal activity"}]}
